Laboratory results: patent EP4821928A1, “BICYCLIC HETEROCYCLIC COMPOUND AND FUNGICIDE FOR AGRICULTURAL AND HORTICULTURAL USE CONTAINING SAME AS ACTIVE INGREDIENT” (dated 2026)

Legend:
Botrytis cinerea = experiment: Tomato gray mold pot test (Test Example B); conditions: for control value: Test Example B, tomato gray mold pot test; for Tomato gray mold pot test (control value): 250 ppm sprayed, 2.5 ml/pot, tomato variety Oogata Fukuju, degree of disease development 2 to 3 days after inoculation
[1] = tested on: Speckled leaf blotch fungus (Septoria tritici); experiment: Speckled leaf blotch anti-germ test (Test Example F); conditions: for rate of inhibition: Test Example F, speckled leaf blotch anti-germ test; for Speckled leaf blotch anti-germ test (rate of inhibition): 50 ppm/well, Czapek-dox broth, 25°C for 3 days, absorbance 600 nm
[2] = tested on: Gray mold fungus (Botrytis cinerea); experiment: Gray mold anti-germ test (Test Example C); conditions: for rate of inhibition: Test Example C, gray mold anti-germ test; for Gray mold anti-germ test (rate of inhibition): 50 ppm/well, Czapek-dox broth, 25°C for 3 days, absorbance 600 nm
Magnaporthe grisea = experiment: Rice blast disease pot test (Test Example A); conditions: for control value: Test Example A, rice blast disease pot test; for Rice blast disease pot test (control value): 250 ppm sprayed, 2.5 ml/pot, rice variety Sachikaze, degree of disease development 6 to 8 days after inoculation
[3] = tested on: Fusarium blight fungus (Fusarium graminearum); experiment: Fusarium blight anti-germ test (Test Example D); conditions: for rate of inhibition: Test Example D, Fusarium blight anti-germ test; for Fusarium blight anti-germ test (rate of inhibition): 50 ppm/well, Czapek-dox broth, 25°C for 3 days, absorbance 600 nm
[4] = tested on: Anthracnose fungus (Glomerella cingulata); experiment: Anthracnose anti-germ test (Test Example E); conditions: for rate of inhibition: Test Example E, anthracnose anti-germ test; for Anthracnose anti-germ test (rate of inhibition): 50 ppm/well, Czapek-dox broth, 25°C for 3 days, absorbance 600 nm

Row | SMILES | control value (Botrytis cinerea) | rate of inhibition [1] | rate of inhibition [2] | control value (Magnaporthe grisea) | rate of inhibition [3] | rate of inhibition [4] | Tomato gray mold pot test (control value) (Botrytis cinerea) | Speckled leaf blotch anti-germ test (rate of inhibition) [1] | Gray mold anti-germ test (rate of inhibition) [2] | Rice blast disease pot test (control value) (Magnaporthe grisea) | Fusarium blight anti-germ test (rate of inhibition) [3] | Anthracnose anti-germ test (rate of inhibition) [4]
1 | CCC1(C)N=C(c2cnn3c(C)c(C)ccc23)c2ccccc2S1 (stereo not drawn) | H (H represents a control value or rate of inhibition of larger than 50%) | H (H represents a control value or rate of inhibition of larger than 50%) | H (H represents a control value or rate of inhibition of larger than 50%) | H (H represents a control value or rate of inhibition of larger than 50%) | H (H represents a control value or rate of inhibition of larger than 50%) | H (H represents a control value or rate of inhibition of larger than 50%) |  |  |  |  |  | 
2 | Cc1ccc2c(c1)OC(C)(CC(C)C)N=C2c1cnn2cc(C)cnc12 (stereo not drawn) | H (H represents a control value or rate of inhibition of larger than 50%) | H (H represents a control value or rate of inhibition of larger than 50%) | H (H represents a control value or rate of inhibition of larger than 50%) | H (H represents a control value or rate of inhibition of larger than 50%) | H (H represents a control value or rate of inhibition of larger than 50%) | H (H represents a control value or rate of inhibition of larger than 50%) |  |  |  |  |  | 
3 | Cc1ccc2c(c1)OC(C)(C)N=C2n1cnc2c(C)cccc21 |  |  |  |  |  |  | H (H represents a control value or rate of inhibition of larger than 50%) | H (H represents a control value or rate of inhibition of larger than 50%) | H (H represents a control value or rate of inhibition of larger than 50%) | H (H represents a control value or rate of inhibition of larger than 50%) | H (H represents a control value or rate of inhibition of larger than 50%) | H (H represents a control value or rate of inhibition of larger than 50%)
4 | COc1cccc2c1ncn2C1=NC(C)(C)Oc2c(Cl)cccc21 |  |  |  |  |  |  | L (L represents a control value or rate of inhibition of 50% or less) | L (L represents a control value or rate of inhibition of 50% or less) | H (H represents a control value or rate of inhibition of larger than 50%) | L (L represents a control value or rate of inhibition of 50% or less) | H (H represents a control value or rate of inhibition of larger than 50%) | H (H represents a control value or rate of inhibition of larger than 50%)
5 | CC(=O)C1(C)N=C(n2cnc3c(Cl)cccc32)c2cccc(C)c2O1 (stereo not drawn) |  |  |  |  |  |  | H (H represents a control value or rate of inhibition of larger than 50%) | L (L represents a control value or rate of inhibition of 50% or less) | H (H represents a control value or rate of inhibition of larger than 50%) | H (H represents a control value or rate of inhibition of larger than 50%) | L (L represents a control value or rate of inhibition of 50% or less) | H (H represents a control value or rate of inhibition of larger than 50%)
6 | Cc1cccc2c1OC(C)(C)N=C2n1cnc2c(F)cccc21 |  |  |  |  |  |  | H (H represents a control value or rate of inhibition of larger than 50%) | H (H represents a control value or rate of inhibition of larger than 50%) | H (H represents a control value or rate of inhibition of larger than 50%) | H (H represents a control value or rate of inhibition of larger than 50%) | H (H represents a control value or rate of inhibition of larger than 50%) | H (H represents a control value or rate of inhibition of larger than 50%)
7 | Cc1cc2ncn(C3=NC4(CCCCC4)Oc4ccccc43)c2cc1C |  |  |  |  |  |  | L (L represents a control value or rate of inhibition of 50% or less) | L (L represents a control value or rate of inhibition of 50% or less) | H (H represents a control value or rate of inhibition of larger than 50%) | L (L represents a control value or rate of inhibition of 50% or less) | H (H represents a control value or rate of inhibition of larger than 50%) | L (L represents a control value or rate of inhibition of 50% or less)
8 | Cc1ccc2c(c1)OC(C)(C)N=C2n1cnc2c(C)c(Cl)cnc21 |  |  |  |  |  |  | H (H represents a control value or rate of inhibition of larger than 50%) | L (L represents a control value or rate of inhibition of 50% or less) | H (H represents a control value or rate of inhibition of larger than 50%) | H (H represents a control value or rate of inhibition of larger than 50%) | H (H represents a control value or rate of inhibition of larger than 50%) | H (H represents a control value or rate of inhibition of larger than 50%)
9 | COc1cccc2c1OC(C)(C)N=C2n1cnc2c(Cl)cccc21 |  |  |  |  |  |  | H (H represents a control value or rate of inhibition of larger than 50%) | L (L represents a control value or rate of inhibition of 50% or less) | H (H represents a control value or rate of inhibition of larger than 50%) | L (L represents a control value or rate of inhibition of 50% or less) | L (L represents a control value or rate of inhibition of 50% or less) | H (H represents a control value or rate of inhibition of larger than 50%)
10 | CCCC1(C)N=C(n2cnc3c(C)c(Br)cnc32)c2cccc(F)c2O1 (stereo not drawn) | H (H represents a control value or rate of inhibition of larger than 50%) | H (H represents a control value or rate of inhibition of larger than 50%) | H (H represents a control value or rate of inhibition of larger than 50%) | H (H represents a control value or rate of inhibition of larger than 50%) | H (H represents a control value or rate of inhibition of larger than 50%) | H (H represents a control value or rate of inhibition of larger than 50%) |  |  |  |  |  | 
11 | CCCC1(CC)N=C(c2cnn3ccccc23)c2ccccc2O1 (stereo not drawn) | H (H represents a control value or rate of inhibition of larger than 50%) | H (H represents a control value or rate of inhibition of larger than 50%) | H (H represents a control value or rate of inhibition of larger than 50%) | H (H represents a control value or rate of inhibition of larger than 50%) | H (H represents a control value or rate of inhibition of larger than 50%) | H (H represents a control value or rate of inhibition of larger than 50%) |  |  |  |  |  | 
12 | CCCC1(C)N=C(n2cnc3c(C)c(C)cnc32)c2cccc(F)c2O1 (stereo not drawn) | H (H represents a control value or rate of inhibition of larger than 50%) | H (H represents a control value or rate of inhibition of larger than 50%) | H (H represents a control value or rate of inhibition of larger than 50%) | H (H represents a control value or rate of inhibition of larger than 50%) | H (H represents a control value or rate of inhibition of larger than 50%) | H (H represents a control value or rate of inhibition of larger than 50%) |  |  |  |  |  | 
13 | CCC1(C)N=C(n2cnc3c(C)cccc32)c2cccc(C)c2O1 (stereo not drawn) |  |  |  |  |  |  | H (H represents a control value or rate of inhibition of larger than 50%) | H (H represents a control value or rate of inhibition of larger than 50%) | H (H represents a control value or rate of inhibition of larger than 50%) | H (H represents a control value or rate of inhibition of larger than 50%) | L (L represents a control value or rate of inhibition of 50% or less) | H (H represents a control value or rate of inhibition of larger than 50%)
14 | Cc1ccc2c(c1)C(n1cnc3c(C)c(Cl)ccc31)=NC(C)(C)O2 |  |  |  |  |  |  | L (L represents a control value or rate of inhibition of 50% or less) | L (L represents a control value or rate of inhibition of 50% or less) | H (H represents a control value or rate of inhibition of larger than 50%) | L (L represents a control value or rate of inhibition of 50% or less) | L (L represents a control value or rate of inhibition of 50% or less) | H (H represents a control value or rate of inhibition of larger than 50%)
